Experimental data: patent publication US20070219159A1, “CYCLODEXTRIN COMPOSITIONS AND METHODS OF TREATING VIRAL INFECTIONS” (priority 2002, published 2007)

Measured: SI = CC50/EC50

OC[C@H]1O[C@@H]2O[C@H]3[C@H](O)[C@@H](O)[C@@H](O[C@H]4[C@H](O)[C@@H](O)[C@@H](O[C@H]5[C@H](O)[C@@H](O)[C@@H](O[C@H]6[C@H](O)[C@@H](O)[C@@H](O[C@H]7[C@H](O)[C@@H](O)[C@@H](O[C@H]8[C@H](O)[C@@H](O)[C@@H](O[C@H]1[C@H](O)[C@H]2O)O[C@@H]8CO)O[C@@H]7CO)O[C@@H]6CO)O[C@@H]5CO)O[C@@H]4CO)O[C@@H]3CO [BCD, β-cyclodextrin]
0: Vaccinia | Cowpox | VEE | Yellow fever

methyl-β-cyclodextrin [MBCD]
0: Flu B | Vaccinia | Cowpox | Yellow fever
